{
  "source": "ChEMBL document CHEMBL6078649",
  "about": "“Discovery of Chalcone Derivatives as Bifunctional Molecules with Anti-SARS-CoV-2 and Anti-inflammatory Activities” (J Nat Prod, 2024)",
  "biological_target": "Replicase polyprotein 1ab (Severe acute respiratory syndrome coronavirus 2) (UniProt P0DTD1)",
  "conditions": "time 50.0 min",
  "data": [
    {"smiles": "O=C(/C=C/c1cc(O)c(O)c(O)c1)c1ccc(F)cc1", "values": [
      {"measurement": "Kinact", "result": "4.5 10^-2/min"}
    ]}
  ]
}
